Results of unrelated studies side by side (data: NIAID ChemDB).

Shared fields: whole-cell or culture tests; agent: HIV-2; endpoint: EC50

ECn is the concentration giving n% inhibition of infection, replication or growth. Rows are shuffled and stem from different studies.

COC(=O)[C@H](CCCN=C(N)N)NC(=O)CCNC(=O)CN(CCNC(=O)CN(CCNC(=O)OCc1ccccc1)C(=O)Cn1cnc2c(=O)[nH]c(N)nc21)C(=O)Cn1cnc2c(N)ncnc21 ; read by: cytopathic effect / MTT ; cell line: PBMC/D194 + PBMC ; result: >200 µM
CCS[C@]12CS(=O)(=O)O[C@@]13[C@@H](CN2)O[C@@H](n1cc(C)c(=O)[nH]c1=O)[C@@H]3O[Si](C)(C)C(C)(C)C ; strain: ROD ; cell line: MT-4 ; result: >50 µM
NC(N)=NCCC[C@H](NC(=O)CCCCCNC(=O)CN(CCNC(=O)CN(CCNC(=O)OCc1ccccc1)C(=O)Cn1cnc2c(N)ncnc21)C(=O)Cn1cnc2c(=O)[nH]c(N)nc21)C(=O)O ; read by: cytopathic effect / MTT ; cell line: PBMC/D194 + PBMC ; result: >200 µM
CCCCCO[C@]12CS(=O)(=O)O[C@@]13[C@@H](CN2)O[C@@H](n1cc(C)c(=O)[nH]c1=O)[C@@H]3O ; strain: ROD ; cell line: MT-4 ; result: >250 µM
Cn1c(=O)cc(Oc2nc(Nc3ccc(C#N)cc3)nc(Oc3cc(=O)oc4ccccc34)n2)c2ccccc21 ; read by: MTT ; strain: ROD ; result: >69.2 µg/mL
NC(N)=NCCC[C@H](NC(=O)CCNC(=O)CN(CCNC(=O)CN(CCNC(=O)OCc1ccccc1)C(=O)Cn1cnc2c(=O)[nH]c(N)nc21)C(=O)Cn1cnc2c(N)ncnc21)C(=O)O ; read by: cytopathic effect / MTT ; cell line: PBMC/D194 + PBMC ; result: >200 µM
Cc1cn([C@H]2C=C[C@@H](CO)O2)c(=O)[nH]c1=O ; read by: syncytia ; strain: ROD ; cell line: CEM ; result: 0.72 µM
CC1=C(C(=O)Nc2ccccc2)C2=NN=C(N)C2C(=O)N1 ; read by: MTT ; strain: ROD ; cell line: MT-4 ; result: 94.7 µg/mL
Cc1cn([C@@H]2O[C@@H]3CN[C@@]4(OCCO)CS(=O)(=O)O[C@@]34[C@H]2O[Si](C)(C)C(C)(C)C)c(=O)[nH]c1=O ; strain: ROD ; cell line: CEM ; result: >25 µM
CC(C)CCC[C@@H](C)[C@H]1CC[C@H]2[C@@H]3CC[C@H]4C[C@@H](CCC=C(c5cc(Cl)c(O)c(C(=O)O)c5)c5cc(Cl)c(O)c(C(=O)O)c5)CC[C@]4(C)[C@H]3CC[C@]12C ; read by: cytopathic effect / MTT ; strain: ROD ; cell line: MT-4 ; result: 4 µg/mL
CC(C)(C)[Si](C)(C)OC[C@H]1O[C@@H](n2ccc(=O)[nH]c2=O)[C@H](O[Si](C)(C)C(C)(C)C)C1(O)C(Cl)C(N)=O ; read by: cytopathic effect / trypan blue ; strain: ROD ; cell line: MT-4 ; result: >2 µM
CC(C)[C@@H](NC(=O)c1ccccc1)C(=O)N/N=C/c1c(F)cccc1F ; read by: MTT ; strain: ROD ; cell line: MT-4 ; result: >348 µM
Cn1c(=O)cc(Oc2nc(Nc3ccc(C#N)cc3)nc(Nc3cnccn3)n2)c2ccccc21 ; read by: MTT ; strain: ROD ; result: >83.58 µg/mL
CC(C)[C@@H](NC(=O)c1ccccc1)C(=O)N/N=C/c1c(F)cccc1Cl ; read by: MTT ; strain: ROD ; cell line: MT-4 ; result: >332 µM
Cn1c(=O)cc(Oc2nc(Nc3ccc(C#N)cc3)nc(Nc3nc4ccccc4s3)n2)c2ccccc21 ; read by: MTT ; strain: ROD ; result: >82.93 µg/mL
CC(C)c1c(Cc2ccccc2)n(CCCCC(N)=O)c(=O)[nH]c1=O ; read by: cytopathic effect / MTT ; strain: EHO ; cell line: MT-4 ; result: >100 µM
O=S(=O)(O)O.O=S(=O)(O)O.O=S(=O)(O)O.O=S(=O)(O)O.O=S(=O)(O)O.O=S(=O)(O)O.OC[C@H]1O[C@@H]2O[C@H]3[C@H](O)[C@@H](O)[C@@H](O[C@H]4[C@H](O)[C@@H](O)[C@@H](O[C@H]5[C@H](O)[C@@H](O)[C@@H](O[C@H]6[C@H](O)[C@@H](O)[C@@H](O[C@H]7[C@H](O)[C@@H](O)[C@@H](O[C@H]1[C@H](O)[C@H]2O)O[C@@H]7CO)O[C@@H]6CO)O[C@@H]5CO)O[C@@H]4CO)O[C@@H]3CO ; read by: cytopathic effect / MTT ; strain: ROD ; cell line: MT-4 ; result: 1.9 µg/mL
CCOC(=O)CCCCn1c(Cc2ccccc2)c(C(C)C)c(=O)[nH]c1=O ; read by: cytopathic effect / MTT ; strain: EHO ; cell line: MT-4 ; result: >100 µM
CCCCCCCCCC[N+](C)(C)CCCNCc1c(O)cc2c(c1O)-c1cc(ccc1O)[C@H]1NC(=O)[C@@H]3NC(=O)C4NC(=O)[C@@H](Cc5ccc(c(Cl)c5)Oc5cc3cc(c5O)Oc3ccc(cc3Cl)[C@@H](O)[C@H](NC1=O)C(=O)N[C@@H]2C(=O)O)NC(=O)[C@H](N)c1ccc(O)c(c1)Oc1cc(O)cc4c1 ; read by: syncytia ; strain: RF ; cell line: CEM ; result: 3.7 µM
Cc1cn([C@@H]2O[C@@H]3CN[C@@]4(OCC(C)(C)C)CS(=O)(=O)O[C@@]34[C@H]2O)c(=O)[nH]c1=O ; strain: ROD ; cell line: CEM ; result: >250 µM
Nc1ccn([C@H]2CC[C@@H](CO)O2)c(=O)n1 ; strain: ROD ; cell line: CEM + CEM-SS ; result: 0.0621 µM
CC(C)(C)[Si](C)(C)OC[C@H]1O[C@@H](n2ccc(=O)[nH]c2=O)[C@H](O[Si](C)(C)C(C)(C)C)[C@@]12O[C@H]2C(N)=O ; read by: cytopathic effect / trypan blue ; strain: ROD ; cell line: MT-4 ; result: >10 µM
Cc1cn([C@@H]2OC3CN[C@@]4(OCC(C)C)CS(=O)(=O)O[C@@]34[C@H]2O[Si](C)(C)C(C)(C)C)c(=O)[nH]c1=O ; strain: ROD ; cell line: CEM ; result: >10 µM
CC1(C)[C@@H](CO)CC[C@@]1(C)Cn1ccc(=O)[nH]c1=O ; cell line: CEM + CEM/0 ; result: >100 µg/mL
O=C(COc1cccc2ccccc12)NN=CCc1ccccc1 ; read by: MTT ; strain: ROD ; cell line: MT-4 ; result: >62.68 µg/mL
Cc1cn([C@@H]2O[C@@H]3CN[C@@]4(OCC(C)C)CS(=O)(=O)O[C@@]34[C@H]2O)c(=O)[nH]c1=O ; strain: ROD ; cell line: CEM ; result: >250 µM
CC1=C(C(=O)Nc2ccc(C)cc2)C2=NN=C(N)C2C(=O)N1 ; read by: MTT ; strain: ROD ; cell line: MT-4 ; result: 100 µg/mL
CC(C)(C)[Si](C)(C)O[C@H]1[C@H](n2ccc(=O)[nH]c2=O)O[C@H](CO)C1(O)C(N=[N+]=[N-])C(N)=O ; read by: cytopathic effect / trypan blue ; strain: ROD ; cell line: MT-4 ; result: >250 µM
CC(C)C(=O)Oc1ccc(COP(=O)(OCc2ccc(OC(=O)C(C)C)cc2)OP(=O)([O-])OC[C@@H]2C=C[C@H](n3ccc(=O)[nH]c3=O)O2)cc1 ; read by: syncytia ; strain: ROD ; cell line: CEM/TK- ; result: ≥50 µM
[O-][n+]1onc2ncnc(N3CC[N+]4(CC3)CC[N+]3(CCN(c5ncnc6no[n+]([O-])c56)CC3)CC4)c21 ; read by: cytopathic effect / XTT ; strain: ROD ; cell line: CEM + CEM-SS ; result: 13.3 µM
CCO[C@]12CS(=O)(=O)O[C@@]13[C@@H](CN2)O[C@@H](n1ccc(=O)[nH]c1=O)[C@@H]3O[Si](C)(C)C(C)(C)C ; strain: ROD ; cell line: CEM ; result: >50 µM
O=c1cc(Cc2ccc3ccccc3c2)nc(SC2CCCC2)[nH]1 ; read by: cytopathic effect / MTT ; strain: ROD ; cell line: C8166 ; result: >100 µM
CC(C)(C)[Si](C)(C)OC[C@H]1O[C@@H](n2ccc(=O)[nH]c2=O)[C@H](O[Si](C)(C)C(C)(C)C)[C@@]12O[C@H]2C(=O)NO ; read by: cytopathic effect / trypan blue ; strain: ROD ; cell line: MT-4 ; result: >10 µM
CC(C)c1c(Cc2ccccc2)n(CCCCCC(N)=O)c(=O)[nH]c1=O ; read by: cytopathic effect / MTT ; strain: EHO ; cell line: MT-4 ; result: >100 µM
CC1(C)[C@@H](CO)CC[C@@]1(C)Cn1cc(I)c(=O)[nH]c1=O ; cell line: CEM + CEM/0 ; result: >100 µg/mL
Cc1ccnc2c1NC(=O)c1cccnc1N2C1CC1 ; read by: MTT ; strain: ROD ; cell line: MT-4 ; result: >4 µg/mL
CC1(C)[C@@H](CO)CC[C@@]1(C)Cn1nnc2c(=O)[nH]cnc21 ; cell line: CEM + CEM/0 ; result: >100 µg/mL
CCCCCCC(=O)Oc1ccc(COP(=O)(OCc2ccc(OC(=O)CCCCCC)cc2)OP(=O)([O-])OC[C@@H]2CC[C@H](n3ccc(=O)[nH]c3=O)O2)cc1 ; read by: syncytia ; strain: ROD ; cell line: CEM/TK- ; result: >50 µM
CC1=[N+](C)N(c2ccccc2)C(=O)C1Nc1nc(Nc2ccc(C#N)cc2)nc(Oc2cc(=O)n(C)c3ccccc23)n1 ; read by: MTT ; strain: ROD ; result: >125 µg/mL
CCn1c(C)c(C(=O)OC)c(C(=O)OC)c1Cc1ccccc1 ; read by: cytopathic effect / MTT ; strain: ROD ; cell line: CEM + CEM-SS ; result: >10 µM
Cn1c(=O)cc(Oc2nc(Nc3ccc(C#N)cc3)nc(Sc3nnc(-c4ccncc4)o3)n2)c2ccccc21 ; read by: MTT ; strain: ROD ; result: >68.75 µg/mL
CC(C)[C@H](NC(=O)c1ccccc1)C(=O)N/N=C/c1ccccc1F ; read by: MTT ; strain: ROD ; cell line: MT-4 ; result: >366 µM
O=c1ccn([C@H]2C=C[C@@H](CO)O2)c(=O)[nH]1 ; read by: syncytia ; strain: ROD ; cell line: CEM/TK- ; result: >250 µM
COC(=O)Cn1c(Cc2ccccc2)c(C(C)C)c(=O)[nH]c1=O ; read by: cytopathic effect / MTT ; strain: EHO ; cell line: MT-4 ; result: >100 µM
CCCCCCCCCCCC(=O)Oc1ccc(COP(=O)(OCc2ccc(OC(=O)CCCCCCCCCCC)cc2)OP(=O)([O-])OC[C@@H]2C=C[C@H](n3ccc(=O)[nH]c3=O)O2)cc1 ; read by: syncytia ; strain: ROD ; cell line: CEM/TK- ; result: >50 µM
CC1(C)[C@@H](CO)CC[C@@]1(C)Cn1cnc2c(=O)[nH]cnc21 ; cell line: CEM + CEM/0 ; result: >100 µg/mL
CCOC(=O)CCCCCn1c(Cc2ccccc2)c(C(C)C)c(=O)[nH]c1=O ; read by: cytopathic effect / MTT ; strain: EHO ; cell line: MT-4 ; result: >100 µM
Nc1nc2c(nc(Br)n2CCOCP(=O)(O)O)c(=O)[nH]1 ; read by: syncytia ; conditions: 4 d ; cell line: CEM ; result: >0.16 µg/mL
c1ccc(CNCc2ccc(CN3CCCNCCNCCCNCC3)cc2)nc1 ; strain: ROD ; result: 0.03 µg/mL
CN1C(=O)[C@]2(C[C@@H]2c2ccc(Cl)cc2)c2ccccc21 ; read by: MTT ; strain: ROD ; cell line: MT-4 ; result: >7.6 µg/mL